A mixed list of measured activities; the numbers were collected in NIAID ChemDB.

Rows are shuffled and stem from different studies.

structure | test | species | strain | target | read by | endpoint | tested at | result
Cc1ccc(Nc2nc(NS(=O)(=O)c3cc(C(=O)Nc4ccc(Cl)cc4)c(Cl)cc3S)n[nH]2)cc1 | culture | Mycobacterium tuberculosis | H37Rv |  | resazurin | MIC bound |  | >6.25 µg/mL
Nc1nc(=S)nc(N)[nH]1 | culture | Mycobacterium tuberculosis | H37Rv |  |  | MIC |  | >100 µg/mL
CCOc1ccc(-c2cncc(N3CCN(c4ccncc4)CC3)n2)cc1 | target | Cytomegalovirus |  | UL97 kinase |  | inhibition | 1 µM | <50%
Cc1nn(C(=O)c2ccncc2)c(C)c1N=Nc1ccc(-c2ccc(N)cc2)cc1 | culture | Mycobacterium tuberculosis | H37Rv |  | BACTEC | inhibition | 12.5 µg/mL | -21%
O=[N+]([O-])c1cccc(S(=O)(=O)Oc2ccccc2)c1 | culture | Mycobacterium tuberculosis | H37Rv |  |  | MIC |  | 50 µg/mL
c1ccc(N2CCN(c3cncc(-c4cccc5ccccc45)n3)CC2)cc1 | target | Cytomegalovirus |  | UL97 kinase |  | inhibition | 10 µM | >15%
O=Cc1cc(Br)ccc1O | culture | Mycobacterium tuberculosis | H37Rv |  |  | MIC |  | 25 µg/mL
Cc1ccc(N2CCN(c3cncc(-c4ccccc4)n3)CC2)cc1 | target | Cytomegalovirus |  | UL97 kinase |  | inhibition | 10 µM | >15%
c1ccc2c(c1)Sc1ccccc1N2CC1CN2CCC1CC2 | culture | Mycobacterium tuberculosis | H37Rv |  | BACTEC | MIC bound |  | >12.5 µg/mL
Cc1cc(C)cc(-c2cncc(N3CCN(c4ccncc4)CC3)n2)c1 | target | Cytomegalovirus |  | UL97 kinase |  | inhibition | 1 µM | <50%
CC1(C)OC2/C(=N\O)C3COC(O3)C2O1 | culture | Mycobacterium tuberculosis | H37Rv |  | BACTEC | inhibition | 12.5 µg/mL | 19%
CC1=NN(c2ccc(N)cc2)C(=O)C1 | culture | Mycobacterium tuberculosis | H37Rv |  |  | MIC |  | 50 µg/mL
S=C(S)NCCNC(=S)S | culture | Mycobacterium tuberculosis | H37Rv |  | BACTEC | inhibition | 128 µg/mL | 100%
Fc1ccc(N2CCCCC2)c(NC(=S)c2ccncc2)c1 | host protein |  |  | EphB3 | kinase activity | inhibition | 10 µM | 9%
C/C(=N\NC(=O)C[N+](C)(C)C)c1sc(-c2cccnc2)nc1C.[Cl-] | culture | Mycobacterium tuberculosis | H37Rv |  | BACTEC | inhibition | 12.5 µg/mL | 8%
Cc1ccc(N2CCN(c3cncc(-c4ccc(F)cc4)n3)CC2)cc1 | target | Cytomegalovirus |  | UL97 kinase |  | inhibition | 1 µM | <50%
CCOc1ccc2nc(NC(=O)C(=O)C(C(=O)c3ccccc3F)C3OC(=O)c4ccccc43)sc2c1 | culture | Mycobacterium tuberculosis | H37Rv |  | resazurin | MIC bound |  | >6.25 µg/mL
CC1=CC(=O)C(C(C)=NCCO)C(=O)O1 | culture | Mycobacterium tuberculosis | H37Rv |  |  | MIC |  | >100 µg/mL
CC(=O)c1ccc(-c2cncc(N3CCN(c4ccccn4)CC3)n2)cc1 | target | Cytomegalovirus |  | UL97 kinase |  | IC50 |  | <10 µM
CCOC(=O)NNP(=O)(NNC(=O)OCC)c1ccccc1 | culture | Mycobacterium tuberculosis | H37Rv |  | BACTEC | inhibition | 12.5 µg/mL | 0%
N=C(N)c1ccccc1 | culture | Mycobacterium tuberculosis | H37Rv |  |  | MIC |  | >100 µg/mL
Cn1c(O)c(N=NC(=O)Cc2c[nH]c3ccccc23)c2ccccc21 | culture | Mycobacterium tuberculosis | H37Rv |  | BACTEC | MIC |  | ≥12.8 µg/mL
C=C(OP(=O)(O)O)c1cc(Br)c(C)cc1C | culture | Mycobacterium tuberculosis | H37Rv |  |  | MIC |  | >100 µg/mL
Cc1cc(-n2c(/C=C/c3ccc(Cl)cc3)nc3cc(Cl)ccc3c2=O)on1 | culture | Mycobacterium tuberculosis | H37Rv |  | resazurin | inhibition | 6.25 µg/mL | -28%
C=CCc1ccc(O)c(OC)c1 | culture | Candida albicans | 2938 |  | turbidity | MIC90 |  | 500 µg/mL
CCOC(=O)C(CN1CCCCC1)N1CCCCC1.Cl | culture | Mycobacterium tuberculosis | H37Rv |  |  | MIC |  | >100 µg/mL
COc1cccc(N2CCN(c3cncc(-c4cccc(C(C)=O)c4)n3)CC2)c1 | target | Cytomegalovirus |  | UL97 kinase |  | IC50 |  | <10 µM
CC(=O)C1CCOC1=O | culture | Mycobacterium tuberculosis | H37Rv |  |  | MIC |  | >100 µg/mL
CCOC(=O)CON=c1c2ccccc2ccc2ccccc12 | culture | Mycobacterium tuberculosis | H37Rv |  | BACTEC | MIC bound |  | >12.5 µg/mL
COc1ccccc1N | culture | Mycobacterium tuberculosis | H37Rv |  |  | MIC |  | >100 µg/mL
Cc1cccc(N2CCN(c3cncc(-c4cc5ccccc5s4)n3)CC2)c1C | target | Cytomegalovirus |  | UL97 kinase |  | inhibition | 10 µM | >15%
COc1ccc(Nc2c3ccc(Cl)cc3nc3ccc(OC)cc23)cc1 | culture | Mycobacterium tuberculosis | H37Rv |  |  | MIC |  | 100 µg/mL
c1ccc2c(-c3cncc(N4CCN(c5cnccn5)CC4)n3)csc2c1 | target | Cytomegalovirus |  | UL97 kinase |  | IC50 |  | <1 µM

A second listing of 2 rows from above:

structure | test | species | strain | target | read by | endpoint | tested at | result
COc1ccccc1N | culture | Mycobacterium tuberculosis | H37Rv |  |  | MIC |  | >100 µg/mL
COc1cccc(N2CCN(c3cncc(-c4cccc(C(C)=O)c4)n3)CC2)c1 | target | Cytomegalovirus |  | UL97 kinase |  | IC50 |  | <10 µM

ICn is the concentration giving n% inhibition. MIC bound comes from a single tested concentration. A number after MIC or MFC names an inhibition level or a share of isolates. Inhibition is in % at the dose shown (toxicity tests: loss of growth or viability). An empty or dashed field is not shown.